Laboratory results reported in US20260102474A1.

Target: Delta (SARS-COV-2)
Experiment: competition

REGN10933 gave an IC50 of 0.4 nM.
